Pooled drug test results. Numbers come from NIAID ChemDB, via PubChem.

Common to all: tests in culture; agent: Mycobacterium tuberculosis

A number after MIC or MFC names an inhibition level or a share of isolates.

structure | conditions | changes | tested at | strain | method | endpoint | result
CC(C)CC(NC(=O)C(Cc1cnc[nH]1)N(C(=O)OCc1ccccc1)C(=O)OCc1ccccc1)C(=O)NN | - | - | 12.5 µg/mL | H37Rv | BACTEC | inhibition | 17%
CCCCS(=O)(=O)Nc1ccc2[nH]c(C(=O)NC3(c4ccccc4)CC3)c(C)c2c1 | - | - | - | H37Rv | resazurin | MIC90 | 6.2 µM
C/C=C/c1ccc2c(c1)[C@@H](C)[C@H](c1ccc(OC)cc1)O2 | - | - | - | H37Rv | resazurin / absorbance | MIC | 7.8 µg/mL
CO[C@@H]1/C=C/O[C@@]2(C)Oc3c(C)c(O)c4c(c3C2=O)C(=N[C@@H]2CC[C@@H](O)O[C@H]2C)C=C(NC(=O)/C(C)=C\C(=O)[C@@H]2C[C@@H]2[C@H](O)[C@@H](C)[C@@H](O)[C@@H](C)[C@H](OC(C)=O)[C@@H]1C)C4=O | - | - | - | H37Rv | BACTEC | MIC | ≥12.5 µg/mL
Cc1c(CN2CCN(C)CC2)cc(-c2ccc(Cl)cc2)n1C1CCCCC1 | - | - | 12.5 µg/mL | H37Rv | - | inhibition | 96%
CCCCS(=O)(=O)Nc1ccc2[nH]c(C(=O)N3CCCC3)c(C)c2c1 | - | - | - | H37Rv | resazurin | MIC90 | 1.56 µM
NNC(=O)c1ccncc1 | - | - | - | Isolate 2219 | - | MIC | >4 µg/mL
OCNC(=S)c1cncc(-n2ccnc2)n1 | - | - | - | H37Rv | - | MIC | 250 µg/mL
CO[C@H]1/C=C/O[C@@]2(C)Oc3c(C)c(O)c4c(=O)c(c5oc6cc(N7CCN(CC(C)C)CC7)cc(=O)c6nc5c4c3=C2O)NC(=O)/C(C)=C\C=C\[C@H](C)[C@H](O)[C@@H](C)[C@@H](O)[C@@H](C)[C@H](OC(C)=O)[C@@H]1C | - | - | - | 13 (isoniazid-resistant) | - | MIC | 0.0019 µg/mL
Clc1ccc(-n2ncc(C(c3ccccc3)n3ccnc3)c2-c2ccccc2)c(Cl)c1 | - | - | - | ATCC 35820 (streptomycin-resistant) | - | MIC90 | 98.3 µM
CC(=O)Nc1ccc(OCC(=O)NN2C(=O)C(C)SC2/C=C/c2ccccc2)cc1 | - | - | - | H37Rv | - | EC50 | >12.5 µg/mL
O=C1CN(CCN2CC(=O)N(Cc3ccccc3)C(=O)C2)CC(=O)N1Cc1ccccc1 | - | - | 6.25 µg/mL | H37Rv | resazurin | inhibition | -3%
CN[C@@H]1[C@H](O[C@H]2[C@H](O[C@H]3[C@H](O)[C@@H](O)[C@H](N=C(N)N)[C@@H](O)[C@@H]3N=C(N)N)O[C@@H](C)[C@]2(O)C=O)O[C@@H](CO)[C@H](O)[C@H]1O | - | Bedaquiline-resistant A63P | - | - | broth dilution | MIC80 | 0.3 µM
CC(=O)Nc1ccc(OCC(=O)N/N=C/C=C/c2ccccc2)cc1 | - | - | - | H37Rv | - | EC50 | >12.5 µg/mL
Fc1ccccc1-n1ncc(C(c2ccccc2)n2ccnc2)c1-c1ccccc1 | - | - | - | ATCC 35828 (pyrazinamide-resistant) | - | MIC90 | ≥100 µM
CC1CN(c2cncc(C#N)n2)CC(C)O1 | - | - | - | Ethionamide-resistant | - | MIC | 500 µg/mL
COc1cc2ccc(=O)oc2cc1O | - | - | - | H37Rv | BACTEC | MIC bound | >12.5 µg/mL
CC(=O)Nc1ccc(OCC(=O)NN2C(=O)CSC2c2ccc(O)cc2)cc1 | - | - | - | H37Rv | - | EC50 | >12.5 µg/mL
CO[C@H]1/C=C/O[C@@]2(C)Oc3c(C)c(O)c4c(O)c(c(/C=N/N5CCN(C)CC5)c(O)c4c3C2=O)NC(=O)/C(C)=C\C=C\[C@H](C)[C@H](O)[C@@H](C)[C@@H](O)[C@@H](C)[C@H](OC(C)=O)[C@@H]1C | - | - | - | ATCC 27294 | broth dilution | MIC80 | 0.04 µM
CC(C)(C)C1=CC(=O)C(Cl)(C(C)(C)C)C(Cl)C1=O | - | - | - | H37Rv | BACTEC | MIC | 32 µg/mL
Cc1c(CN2CCOCC2)c(CN2CCOCC2)c(-c2ccc(Cl)cc2)n1C1CCCCC1 | - | - | - | H37Rv | - | MIC | <12.5 µg/mL
CC(=O)O.O=C1NC2(CCN(Cc3ccccc3)CC2)Nc2ccccc21 | - | - | 12.5 µg/mL | H37Rv | BACTEC | inhibition | -11%
Fc1ccc(-n2ncc(C(c3ccccc3)n3ccnc3)c2-c2ccccc2)cc1 | - | - | - | ATCC 35822 (isoniazid-resistant) | - | MIC90 | ≥100 µM
C=CC[N+]12CC=C3COC(=O)C(C)(O)C(C)(O)C(C)C(=O)OC(CC1)C32.[Br-] | - | - | 12.5 µg/mL | H37Rv | BACTEC | inhibition | -3%
C[C@@H]1Oc2nc([N+](=O)[O-])cn2C[C@@H]1OCc1ccc(OC(F)(F)F)cc1 | - | - | - | H37Rv-T2 | absorbance | MIC | >100 µM
Cc1c(CN2CCOCC2)cc(-c2ccc(Cl)cc2)n1C1CCCCC1 | - | - | 12.5 µg/mL | H37Rv | - | inhibition | 99%
CCCCS(=O)(=O)Nc1ccc2[nH]c(C(=O)NC)c(C)c2c1 | - | - | - | H37Rv | resazurin | MIC90 | 3.1 µM
Clc1ccc(-c2c(C(c3ccccc3)n3ccnc3)cnn2-c2ccc(Cl)cc2Cl)cc1 | - | - | - | ATCC 35837 (ethambutol-resistant) | - | MIC90 | ≥100 µM
Cc1c(CN2CCOCC2)c(CN2CCOCC2)c(-c2ccc(Cl)cc2)n1Cc1ccccc1 | - | - | - | 103471 | - | MIC | 16 µg/mL
CCOc1cc(/C=N/N=c2\scc(-c3cc4cc(Br)ccc4oc3=O)n2CC)ccc1O | - | - | 12.5 µg/mL | H37Rv | - | inhibition | 86%
CCCCS(=O)(=O)Nc1ccc2[nH]c(Br)c(C)c2c1 | - | - | - | H37Rv | resazurin | MIC90 | 0.78 µM
Cc1cc(CN2CCN(C)CC2)c(C)n1C1CCCCC1 | - | - | - | 103471 | - | MIC | 8 µg/mL
CC(=O)Nc1ccc(OCC(=O)NN2C(=O)CSC2c2cccc([N+](=O)[O-])c2)cc1 | - | - | - | H37Rv | - | EC50 | >12.5 µg/mL
COC(=O)[C@H](Cc1c[nH]c2ccccc12)NC(=O)[C@H](Cc1c[nH]c2ccccc12)NC(=O)[C@H](Cc1c[nH]c2ccccc12)NC(=O)OC(C)(C)C | - | - | - | H37Rv | resazurin | MIC bound | >6.25 µg/mL
Fc1ccccc1-c1c(C(c2ccccc2)n2ccnc2)cnn1-c1ccccc1F | - | - | - | ATCC 35837 (ethambutol-resistant) | - | MIC50 | ≥100 µM
CCOc1cc(/C=N/N=c2\scc(-c3cc4ccccc4oc3=O)n2C2CCCCC2)ccc1O | - | - | - | H37Rv | - | MIC | 6.25 µg/mL
O=C(NNC(=O)c1ccncc1)Nc1ccc(F)c(Cl)c1 | 14 d | - | - | My 331/88 | broth dilution | MIC100 | 62.5 µM
CO[C@H]1[C@@H](O)[C@@H](C)O[C@H](O[C@H]2[C@H](Oc3cccc4c(O)c5c(=O)oc6ccc(C)c7c(=O)oc(c34)c5c67)O[C@H](C)[C@H](O)[C@@H]2O)[C@@H]1O | - | - | - | H37Rv | BACTEC | MIC bound | >128 µg/mL
CCN=c1cc2n(-c3ccc(C(F)(F)F)cc3)c3ccccc3nc-2cc1Nc1ccc(C(F)(F)F)cc1 | multidrug-resistant | - | - | 2219 | - | MIC | ≤0.06 µg/mL
CO[C@H]1/C=C/O[C@@]2(C)Oc3c(C)c(O)c4c(O)c(c(/C=N/N5CCN(C)CC5)c(O)c4c3C2=O)NC(=O)/C(C)=C\C=C\[C@H](C)[C@H](O)[C@@H](C)[C@@H](O)[C@@H](C)[C@H](OC(C)=O)[C@@H]1C | - | 522Leu | - | - | - | MIC99 | >640 µg/mL
Cl.Cl.OCCN1CCCN(CCCN2c3ccccc3Sc3ccc(C(F)(F)F)cc32)CC1 | - | - | - | H37Rv | BACTEC | MIC | 12.5 µg/mL
COc1nc2ccc(Br)cc2cc1[C@@H](c1ccccc1)[C@@](O)(CCN(C)C)c1cccc2ccccc12 | - | - | - | - | broth dilution | MIC80 | 0.2 µM
Clc1ccc(-n2ncc(C(c3ccccc3)n3ccnc3)c2-c2ccccc2Cl)c(Cl)c1 | - | - | - | ATCC 35820 (streptomycin-resistant) | - | MIC90 | 100 µM
COc1ccc(Nc2nnc(-c3ccncc3)o2)cc1 | 21 d | - | - | My 331/88 | broth dilution | MIC100 | >125 µM
NC(=O)c1cncc(-n2ccnc2)n1 | - | - | - | SP 607 | - | MIC | 1000 µg/mL
O=C1Oc2cc3c(c4cccc1c24)OCN(c1ccc(Cl)cc1)C3 | - | - | 12.5 µg/mL | H37Rv | BACTEC | inhibition | 70%
Cc1ccc(-c2ccc(Cl)cc2)n1Cc1ccccc1 | - | - | 12.5 µg/mL | H37Rv | - | inhibition | 96%
COC(=O)C1=C(C(=O)OC)P2(c3ccccc3)(c3ccccc3)S/C(=N\P(C)(C)=S)N2C1(c1ccccc1)c1ccccc1 | - | - | 12.5 µg/mL | H37Rv | BACTEC | inhibition | -4%
Cc1c(CN2CCN(C)CC2)cc(-c2ccc(Cl)cc2)n1Cc1ccccc1 | - | - | - | H37Rv | - | MIC | <12.5 µg/mL
O=C(NNC(=O)c1ccncc1)Nc1ccc(Br)cc1Br | 21 d | - | - | My 331/88 | broth dilution | MIC100 | 8 µM
CCCCCCn1c(-c2ccc(Cl)cc2)cc(CN2CCOCC2)c1C | - | - | - | H37Rv | - | MIC | <12.5 µg/mL
CC(=O)C1(N=Nc2ccc(S(=O)(=O)Nc3nnc(C)s3)cc2)CCOC1=O | - | - | - | H37Rv | BACTEC | MIC bound | >12.5 µg/mL
CO[C@H]1/C=C/O[C@@]2(C)Oc3c(C)c(O)c4c(O)c(c(/C=N/N5CCN(C)CC5)c(O)c4c3C2=O)NC(=O)/C(C)=C\C=C\[C@H](C)[C@H](O)[C@@H](C)[C@@H](O)[C@@H](C)[C@H](OC(C)=O)[C@@H]1C | - | - | - | ATCC 35837 (ethambutol-resistant) | - | MIC90 | 1 µM
C=CCn1c(-c2cc3cc(Br)ccc3oc2=O)cs/c1=N\N=C\c1cc(Br)ccc1O | - | - | - | H37Rv | - | EC50 | <12.5 µg/mL
Cc1ccc(S(=O)(=O)N/N=c2\c(C)c(C3=NS(=O)(=O)c4cc(S(N)(=O)=O)c(Cl)cc4N3)oc3c(Cl)cc(Cl)cc23)cc1 | - | - | - | H37Rv | resazurin | MIC bound | >6.25 µg/mL
CCCCn1c(-c2cc3cc(Br)ccc3oc2=O)cs/c1=N\N=C\c1ccc(Cl)cc1 | - | - | - | H37Rv | - | MIC | >12.5 µg/mL
COc1ccc(N=Nc2ccc(N)nc2N)cc1 | - | - | 12.5 µg/mL | H37Rv | BACTEC | inhibition | 24%
O=C([C@@H](O)CO)N1CC=C(c2c(F)cc(N3C[C@H](COc4ccon4)OC3=O)cc2F)CC1 | - | - | - | H37Rv Harlingen | broth dilution | MIC | 0.25 µg/mL
O=C(NNC(=O)c1ccncc1)Nc1ccc(Br)c(F)c1 | 14 d | - | - | My 331/88 | broth dilution | MIC100 | 62.5 µM
CCCCCCn1c(C)ccc1C | - | - | - | H37Rv | - | MIC | <12.5 µg/mL
NC1CCC(C(=O)O)C1 | - | - | 12.5 µg/mL | H37Rv | BACTEC | inhibition | -8%
CC1CN(c2cncc(C(=O)NO)n2)CC(C)O1 | - | - | - | Isoniazid-resistant | - | MIC | 500 µg/mL
c1ccc(-c2c(C(c3ccccc3)n3ccnc3)cnn2-c2ccccc2)cc1 | - | - | - | ATCC 27294 | - | MIC90 | >100 µM
CCCCCCCCCC1=C(O)C(=O)C(C)=C(O)C1=O | - | - | 128 µg/mL | H37Rv | BACTEC | inhibition | 100%
CCCc1ccc2oc(-c3ccc(O)c(OC)c3)c(C)c2c1 | - | isoniazid rifampicin pyrazinamide resistant | - | Clinical isolate 73-A | resazurin / absorbance | MIC | 3.9 µg/mL
CC1COc2c(N3CCN(C)CC3)c(F)cc3c(=O)c(C(=O)O)cn1c23 | - | - | - | DKU220 | broth dilution | MIC | 0.5 µg/mL
COc1ccc(-c2c(C)c(C(=O)O)nc(-c3ccc4c(O)c(OC)c5c(c4n3)=NC(C)(C)N=5)c2N)c(O)c1OC | - | - | - | H37Rv | BACTEC | MIC | ≥12.8 µg/mL
C/C=C/c1ccc2oc(-c3ccc(O)c(OC)c3)c(C)c2c1 | - | - | - | H37Rv | resazurin / absorbance | MIC | 1.9 µg/mL
NNC(=O)c1ccncc1 | - | T460C Cys154Arg | - | AZD5847-resistant 8.9 | - | MIC | 0.06 µg/mL
CCCCCCCc1ccc(NC(=O)NNC(=O)c2ccncc2)cc1 | 21 d | - | - | My 331/88 | broth dilution | MIC100 | 32 µM
Cc1cc(=O)[nH]c2cc(NN)ccc12 | - | - | 12.5 µg/mL | H37Rv | BACTEC | inhibition | 40%
C=CCn1c(-c2cc3ccccc3oc2=O)cs/c1=N\N=C\c1cc(Br)ccc1O | - | - | - | H37Rv | - | MIC | >12.5 µg/mL
CCCCS(=O)(=O)Nc1ccc2[nH]c(C(=O)NC(C)(C)c3ccccc3)c(C)c2c1 | - | - | - | H37Rv | resazurin | MIC90 | 3.13 µM
Cc1cc2nc3n(c2cc1C)C(C)(C)N=C(N)N3 | - | - | 6.25 µg/mL | H37Rv | resazurin | inhibition | 49%
CC1COc2c(N3CCN(C)CC3)c(F)cc3c(=O)c(C(=O)O)cn1c23 | - | - | - | ATCC 27294 | - | MIC50 | 0.7 µM
COc1cc(C2SCC(=O)N2NC(=O)COc2ccc(NC(C)=O)cc2)ccc1O | - | - | - | H37Rv | - | EC50 | >12.5 µg/mL

Conditions beyond the fields shown may differ between rows. Blank or dashed fields: not listed here. ECn: concentration that inhibits the pathogen or its effect by n%. Inhibition is in % at the dose shown (toxicity tests: loss of growth or viability). MIC bound: limit read from a one-dose screen.